Source: US11419918B2 (Shenzhen Turier Biotech Co., Ltd., priority 2017, dated 2022)

Assay: general procedure: Fmoc solid-phase peptide synthesis; Rink amide MBHA-LL resin; HCTU/DIEPA
Conditions: whole synthesis, scale 0.25 mmol

His-(D-Ser)-Gln-Gly-Thr-Phe-Thr-Ser-Asp-Tyr-Ser-Lys-Tyr-Leu-Asp-Lys(PEG2-PEG2-γGlu-CO(CH2)14CH3)-Arg-Arg-Ala-Gln-Asp-Phe-Val-Gln-Trp-Leu-Met-Asn-Thr-Gly-Gly-Pro-Ser-Ser-Gly-Ala-Pro-Pro-Pro-Ser-NH2
final HPLC purity: greater than 95%
